IC50 data for five compounds are collected here from patent US10370401B2, “Substituted nucleosides, nucleotides and analogs thereof” (Alios BioPharma, Inc., priority 2013, dated 2019).

Protein sequences, listed by entry. Tags and fused reporters are not part of them. Residues count along the entry.
UniProt Q82122, 1694-2153 limits assumed: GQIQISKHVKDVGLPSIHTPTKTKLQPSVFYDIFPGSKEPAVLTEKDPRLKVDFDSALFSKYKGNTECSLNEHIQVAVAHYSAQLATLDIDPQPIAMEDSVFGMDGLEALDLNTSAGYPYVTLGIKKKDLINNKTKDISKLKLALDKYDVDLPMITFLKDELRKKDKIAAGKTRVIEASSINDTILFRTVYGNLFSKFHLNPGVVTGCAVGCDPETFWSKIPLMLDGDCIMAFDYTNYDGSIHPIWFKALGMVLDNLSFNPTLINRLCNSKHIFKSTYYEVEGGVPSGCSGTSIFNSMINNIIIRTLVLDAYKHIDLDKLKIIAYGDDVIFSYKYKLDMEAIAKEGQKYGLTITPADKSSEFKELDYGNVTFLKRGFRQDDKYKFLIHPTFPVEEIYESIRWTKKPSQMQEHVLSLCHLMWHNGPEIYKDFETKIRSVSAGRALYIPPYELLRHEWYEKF

For test [1], the target named is human rhinovirus 16 polymerase (HRV16pol) (Human rhinovirus 16, UniProt Q82122). As to the kind of experiment: Picornavirus polymerase inhibition assay. The test is classed as biochemical. The following applies: 2.5 h at 30° C., mean of several independent experiments.
For another test, the target named is NS5B570-Con1 (Delta-21) (Hepatitis C virus genotype 1b, UniProt Q9WMX2). As to the kind of experiment: NS5B inhibition assay. The test is classed as biochemical, HCV. The following applies: NS5B570-Con1, 2 hours at 37° C., mean of several independent experiments.

Molecules are shown by their SMILES.

Regarding `C[C@]1(O)[C@H](n2ccc(=O)[nH]c2=O)O[C@](F)(COP(O)(=S)OP(=O)(O)OP(=O)(O)O)[C@H]1O` (single isomer, unassigned) [117], the IC50 is < 100 µM in test [1] and 1 to 10 µM against NS5B570-Con1 (Delta-21).

Regarding `[N-]=[N+]=NC[C@]1(COP(=O)(O)OP(=O)(O)OP(=O)(O)O)O[C@@H](n2cnc3c(=O)[nH]c(N)nc32)[C@H](F)[C@@H]1O`, the IC50 in test [1] was < 10 µM. As for `O=c1ccn([C@@H]2O[C@](CF)(COP(=O)(O)OP(=O)(O)OP(=O)(O)O)[C@@H](O)C2(F)F)c(=O)[nH]1`, the IC50 in test [1] is < 10 µM; against NS5B570-Con1 (Delta-21), 10 to 100 µM. For `[N-]=[N+]=NC[C@]1(COP(=O)(O)OP(=O)(O)OP(=O)(O)O)O[C@@H](n2ccc(=O)[nH]c2=O)[C@H](F)[C@@H]1O`, the IC50 in test [1] was < 10 µM; against NS5B570-Con1 (Delta-21), 10 to 100 µM. On to `C[C@]1(O)[C@H](n2ccc(=O)[nH]c2=O)O[C@](F)(COP(O)(=S)OP(=O)(O)OP(=O)(O)O)[C@H]1O` (single isomer, unassigned) [116], for which the IC50 in test [1] is < 10 µM; at NS5B570-Con1 (Delta-21), < 1 µM.
